Measured values taken from the supplement of paper PMC3578754.
Fold change is the IC50 on the isolate divided by the IC50 on a reference virus; 1 = unchanged, higher = more resistant. Changes are given against the subtype B consensus. No active / inactive call. The values were gathered from many studies (numbered anew) with different assays, which the source does not name. Most viruses are clinical isolates; some are laboratory strains or clones with known resistance changes. Isolates with mixed residues are left out; stretches that were not sequenced show no change. Round top values that many isolates share are read here as limits; other very high values and 0.1 may be limits too.

Experiments:
Test in all cases: fold change of IC50 against reference virus; higher = more resistant
delavirdine = compound: CC(C)Nc1cccnc1N1CCN(C(=O)c2cc3cc(NS(C)(=O)=O)ccc3[nH]2)CC1 [delavirdine]
Experimental: (§1)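 Cell-culture drug susceptibility tests of virus bearing the reverse transcriptase of each isolate, gathered from many studies.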

nevirapine = compound: Cc1ccnc2c1NC(=O)c1cccnc1N2C1CC1 [nevirapine]
Experimental: as §1

stavudine = compound: Cc1cn([C@H]2C=C[C@@H](CO)O2)c(=O)[nH]c1=O [stavudine]
Experimental: as §1

zidovudine = compound: Cc1cn([C@H]2C[C@H](N=[N+]=[N-])[C@@H](CO)O2)c(=O)[nH]c1=O [zidovudine]
Experimental: as §1

zalcitabine = compound: Nc1ccn([C@H]2CC[C@@H](CO)O2)c(=O)n1 [zalcitabine]
Experimental: as §1

abacavir = compound: Nc1nc(NC2CC2)c2ncn([C@H]3C=C[C@@H](CO)C3)c2n1 [abacavir]
Experimental: as §1

efavirenz = compound: O=C1Nc2ccc(Cl)cc2[C@@](C#CC2CC2)(C(F)(F)F)O1 [efavirenz]
Experimental: as §1

didanosine = compound: O=c1[nH]cnc2c1ncn2[C@H]1CC[C@@H](CO)O1 [didanosine]
Experimental: as §1

| Test System | fold change of IC50 against reference virus (delavirdine) | fold change of IC50 against reference virus (nevirapine) | fold change of IC50 against reference virus (stavudine) | fold change of IC50 against reference virus (zidovudine) | fold change of IC50 against reference virus (zalcitabine) | fold change of IC50 against reference virus (abacavir) | fold change of IC50 against reference virus (efavirenz) | fold change of IC50 against reference virus (didanosine) |
| --- | --- | --- | --- | --- | --- | --- | --- | --- |
| HIV-1 isolate 651 (reverse transcriptase changes: K20R M41L K122E I135T M184V T200A R211K T215Y A272P I293V E297K, study 112) | 0.6 | 0.9 | 1.6 | 6.5 | 2.2 | 6.7 | 0.6 | 1.4 |
| HIV-1 isolate 1124 (reverse transcriptase changes: K65R L74V K122E F214L A272P K277R A376T A400T D460N S468T H483Y K512Q S519N, study 144) |  |  | 1 | 1 | 4 | 3.6 |  | 4 |
| HIV-1 isolate 569 (reverse transcriptase changes: M41L L74V K103N D123E Q174K Y181C M184V T200A R211T T215Y V245M A272P I293V E297K, study 119) | 1.5 | 9.6 | 1.3 |  | 1.7 | 6.3 | 9.5 | 1.7 |
| HIV-1 isolate 318 (reverse transcriptase changes: Y115F K122E M184V F214L A272P K277R A376T A400T D460N S468T H483Y K512Q S519N, study 144) |  |  | 2 | 2 | 3 | 6.8 |  | 5 |
| HIV-1 isolate 1005 (reverse transcriptase changes: M41L L74V V106A K122E F214L T215Y A272P K277R M357T A376T A400T N447S D460N S468T S519N, study 68) | 12.1 | 1.5 | 3.4 | 97 | 5.9 | 11.7 |  | 3.5 |
| HIV-1 isolate 830 (reverse transcriptase changes: L74V Y115F K122E M184V F214L A272P K277R A376T A400T D460N S468T H483Y K512Q S519N, study 144) |  |  | 2 | 1 | 4 | 11 |  | 5 |
| HIV-1 isolate 1013 (reverse transcriptase changes: M41L D67N K70R K102Q S162C Y181C T215Y K219Q K277R, study 110) |  |  | 1.4 | 7.3 | 0.4 | 1 |  | 0.5 |
| HIV-1 isolate 845 (reverse transcriptase changes: A62V V75I F77L K102Q F116Y Q151M S162C M184V K277R, study 110) |  |  | 11.5 | 307 | 16.1 | 28.9 |  | 18.3 |
| HIV-1 isolate 519 (reverse transcriptase changes: Y115F K122E F214L A272P K277R A376T A400T D460N S468T H483Y K512Q S519N, study 144) |  |  | 1 | 2 | 1 | 2.1 |  | 1 |
| HIV-1 isolate 1257 (reverse transcriptase changes: K65R K122E M184V F214L A272P K277R A376T A400T D460N S468T H483Y K512Q S519N, study 144) |  |  | 1 | 1 | 8 | 6.9 |  | 5 |
| HIV-1 isolate 1004 (reverse transcriptase changes: K20R K122E I142V T165I M184V K277R A288S I293V, study 119) | 0.3 | 0.7 | 0.6 | 0.9 | 0.9 | 3.5 |  | 1.6 |
| HIV-1 isolate 1294 (reverse transcriptase changes: M41L V60I I135V S162C G196E T215Y T286A I293V E297K S322A D324E F346Y M357T R358K G359S K366R A400T, study 54) | 0.1 | 0.1 | 2.1 |  | 1.2 | 1.7 | 0.2 | 1.2 |
| HIV-1 isolate 1260 (reverse transcriptase changes: L74V K122E F214L A272P K277R A376T A400T D460N S468T H483Y K512Q S519N, study 144) |  |  | 1 | 2 | 4 | 3.8 |  | 3 |
| HIV-1 isolate 478 (reverse transcriptase changes: K122E M184V F214L A272P K277R A376T A400T D460N S468T H483Y K512Q S519N, study 144) |  |  | 2 | 3 | 3 | 2.9 |  | 2 |
